Results of unrelated studies side by side (data: NIAID ChemDB).

All rows: tests in culture; agent: HIV-1; read by: MTT; measure: EC50

ECn is the concentration giving n% inhibition of infection, replication or growth. Lines come from different laboratories, so protocols vary. a–b is a range or a potency band. An empty or dashed field is not shown.

structure,changes,cell line,strain or isolate,value
COc1cc(/C=C/c2nc(NC(=S)Nc3cccc([N+](=O)[O-])c3)c3ccccc3n2)cc(OC)c1OC,,MT-4,IIIB,>3.07 µg/mL
CCc1c(Cc2cc(C)cc(C)c2)n(COCC#Cc2cccc(CO[Si](c3ccccc3)(c3ccccc3)C(C)(C)C)c2)c(=O)[nH]c1=O,WT,MT-4,IIIB,0.6 µM
COc1cc(/C=C/c2nc(NC(=S)Nc3ccccc3Cl)c3ccccc3n2)cc(OC)c1OC,,MT-4,IIIB,>3.85 µg/mL
Cc1cc(C#N)cc(C)c1Oc1nc(Nc2ccc(C#N)cc2)ncc1SCC(=O)NC1CCN(C(=O)OC(C)(C)C)CC1,K103N,MT-4,,0.01 µM
Nc1ncnc2c1ncn2[C@@H]1C=C(Br)[C@H](CO)[C@H]1CO,,MT-2,IIIB,>1 µM
CCOC(=O)CNc1nc(Nc2ccc(F)cc2)nc(Oc2cc(=O)oc3ccccc23)n1,,MT-4,IIIB,>67.6 µg/mL
CCc1c(Cc2ccccc2C)n(COC/C(Br)=C(\Br)c2ccccc2)c(=O)[nH]c1=O,K103N + Y181C,MT-4,IIIB,>26 µM
CSC(=Nc1ccc(F)cc1)Nn1c(C)nc2ccccc2c1=O,,MT-4,IIIB,2.84 µg/mL
C=CCNC(=O)CSc1cnc(Nc2ccc(C#N)cc2)nc1Oc1c(C)cc(C#N)cc1C,Y188L,MT-4,,0.0452 µM
C=CS(=O)(=O)N1CCC(NS(=O)(=O)c2c(C(N)=O)[nH]c3ccc(Br)cc23)C1,Y181C,MT-4,IIIB,2.36 µM
CCc1c(Cc2cc(C)cc(C)c2)n(COCCCc2ccccc2)c(=O)[nH]c1=O,,MT-4,IIIB,0.05 µM
Cc1cc(C#N)cc(C)c1Oc1nc(Nc2ccc(C#N)cc2)ncc1SCC(=O)NCCCN1CCOCC1,F227L V106A,MT-4,,0.1059 µM
CCOCn1c(Cc2ccccc2)c(C(C)C)c(=O)[nH]c1=O,Y181C,MT-4,IIIB,20 µM
CCOC(=O)CNc1nc(NC(=O)Nc2ccc(OC)cc2)nc(Oc2cc(=O)oc3ccccc23)n1,,MT-4,IIIB,>85.9 µg/mL
CCc1c(Cc2cc(OC)cc(OC)c2)[nH]c(=S)[nH]c1=O,Efavirenz-resistant (K103R + V179D + P225H),MT-4,IIIB,>100 µM
O=C(COc1nsnc1-c1cccc2ccccc12)Nc1ccccc1F,,MT-4,IIIB,>126 µM
CCOC(=O)CNc1nc(NC(=O)Nc2ccccc2OC)nc(Oc2cc(=O)oc3ccccc23)n1,,MT-4,IIIB,>125 µg/mL
Cc1cc(C#N)cc(C)c1Oc1nc(Nc2ccc(C#N)cc2)ncc1SCC(=O)NCc1ccc(O)cc1,RES056,MT-4,,0.3858 µM
Cc1c(Cl)nc(N(C)C)nc1C(C#N)c1c(F)cccc1F,,MT-4,IIIB,8 µM
CCc1c(Cc2ccccc2)n(COCC2CC2)c(=O)[nH]c1=O,K103N/Y181C,MT-4,A17,>100 µM
Cc1ccnc2c1NC(=O)c1cccnc1N2C1CC1,,MT-4,IIIB,0.00965 µg/mL
CSC1=NC2(C[C@@H]2c2ccccc2)C(=O)N1C(C)=O,,MT-4/C8166 + MT-4,ADP/141,2.3–5.8 µg/mL
CSC(=Nc1ccccc1)Nn1c(C)nc2ccccc2c1=O,,MT-4,IIIB,57.26 µg/mL
C=CCn1cc(COCn2c(Cc3cc(C)cc(C)c3)c(CC)c(=O)[nH]c2=O)nn1,EFV-resistant (K103R V179D P225H),MT-4,IIIB,6 µM
CCc1c(Cc2ccccc2)n(COCCc2ccccc2)c(=O)[nH]c1=O,K103R/V179D/P225H,MT-4,EFVR,>43 µM
Cc1cc(/C=C/C#N)cc(C)c1Oc1ccnc(Nc2ccc(CN3CCN(S(=O)(=O)N(C)C)CC3)cc2)n1,F227L V106A,MT-4,,>3.07 µM
CN=C(Nn1c(C)nc2ccccc2c1=O)SC,,MT-4,IIIB,100 µg/mL
CCOC(=O)CNc1nc(Nc2ccc(C)cc2)nc(Oc2cc(=O)oc3ccccc23)n1,,MT-4,IIIB,1.07 µg/mL
CCc1c(Cc2cc(C)cc(C)c2)n(COCC#Cc2ccc(CO)cc2)c(=O)[nH]c1=O,K103N + Y181C,MT-4,IIIB,2 µM
CCOC(=O)CNc1nc(Nc2ccc(OCC)cc2)nc(Oc2cc(=O)oc3ccccc23)n1,,MT-4,IIIB,>62.13 µg/mL
CCc1c(Cc2ccc(C)cc2)n(COCc2ccccc2)c(=O)[nH]c1=O,Y181C,MT-4,N119,>44 µM
Cc1cc(C#N)cc(C)c1Oc1nc(Nc2ccc(C#N)cc2)ncc1SCC(=O)NCCN1CCOCC1,L100I,MT-4,,0.0231 µM
Cc1c(C(=O)c2c(F)cccc2F)nc(N(C)C)[nH]c1=O,K103N + Y181C,MT-4,IIIB,>100 µM
CCc1c(Cc2ccccc2C)n(COCC#Cc2cccc3ccccc23)c(=O)[nH]c1=O,WT,MT-4,IIIB,1.8 µM
C=CCN=C(Nn1c(C)nc2ccccc2c1=O)SC,,MT-4,IIIB,5.77 µg/mL
CCc1c(Cc2cc(C)cc(C)c2)n(COCC#Cc2ccccc2C(F)(F)F)c(=O)[nH]c1=O,Y181C,MT-4,IIIB,>25 µM
CCCOCn1c(C(F)c2cccc(C#N)c2)c(CC)c(=O)[nH]c1=O,,MT-4,IIIB,0.07 µM
COCCNC(=O)CSc1cnc(Nc2ccc(C#N)cc2)nc1Oc1c(C)cc(C#N)cc1C,RES056,MT-4,,0.351 µM
CCc1c(Cc2cc(OC)cc(OC)c2)[nH]c(=O)[nH]c1=O,,MT-4,IIIB,>100 µM
CCOCn1c(C(=O)c2cccc(C#N)c2)c(CC)c(OC)nc1=O,EFV,MT-4,IIIB,>100 µM
COc1nc(N(C)C)nc(C(C#N)c2c(F)cccc2F)c1C,EFV-resistant (K103R V179D P225H),C8166,IIIB,>10 µM
Cc1cc(C#N)cc(C)c1Oc1nc(Nc2ccc(C#N)cc2)ncc1SCC(=O)NCC1CCCO1,E138K,MT-4,,0.0169 µM
COc1cccc(OC)c1C(=O)c1nc(N(C)C)nc(OC)c1C,K103N + Y181C,MT-4,IIIB,>8 µM
Fc1ccccc1Cn1cc(COc2nsnc2-c2cccc3ccccc23)nn1,,MT-4,IIIB,>79 µM
CCc1c(Cc2ccccc2)n(COCCCc2ccccc2)c(=O)[nH]c1=O,,MT-4,IIIB,0.2 µM
Cc1cc(C#N)cc(C)c1Oc1nc(Nc2ccc(C#N)cc2)ncc1SCC(=O)NCCN1CCN(C(=O)OC(C)(C)C)CC1,L100I,MT-4,,0.0702 µM
COC(=O)c1ccc(NC(=O)COc2nsnc2-c2cccc3ccccc23)c(Br)c1,,MT-4,IIIB,>100 µM
CSC(=Nc1ccc([N+](=O)[O-])cc1)Nn1c(C)nc2ccccc2c1=O,,MT-4,IIIB,1.56 µg/mL
Nc1ncnc2c1ncn2[C@@H]1C=C(Cl)[C@H](CO)[C@H]1CO,,MT-2,IIIB,>1 µM
CCc1c(Cc2ccc(C)cc2)n(COCC2CC2)c(=O)[nH]c1=O,,MT-4,IIIB,37 µM
COc1cc(Cc2[nH]c(=S)[nH]c(=O)c2C(C)C)cc(OC)c1,K103N + Y181C,MT-4,A17,>100 µM
C#Cc1ccc(Nc2nccc(Oc3c(C)cc(-c4cn(Cc5ccc(C(=O)OC)cc5)nn4)cc3C)n2)cc1,Y188L,MT-4,IIIB,≥9.09 µM
CCc1c(Cc2ccc(C)cc2)n(COCCCc2ccccc2)c(=O)[nH]c1=O,,MT-4,IIIB,>43 µM
CCc1c(Cc2cc(C)cc(C)c2)n(COCC#Cc2ccccc2)c(=O)[nH]c1=O,WT,MT-4,IIIB,0.004 µM
COC(=O)c1ccc(NC(=O)COc2nsnc2-c2cccc3ccccc23)cc1,,MT-4,IIIB,>4.9 µM
Cc1c(C(O)c2c(F)cccc2F)nc(N(C)C)[nH]c1=O,Y181C,MT-4,IIIB,>50 µM
COc1cc(/C=C/c2nc(NC(=O)Nc3cccc(Cl)c3)c3ccccc3n2)cc(OC)c1OC,,MT-4,IIIB,>2.08 µg/mL
CC(Oc1nsnc1-c1cccc2ccccc12)C(=O)Nc1ccccc1F,,MT-4,IIIB,22 µM
COc1cc(Cc2c(C(C)C)c(=O)[nH]c(=O)n2COCCOc2ccccc2)cc(OC)c1,Y181C,MT-4,N119,>33 µM
C#Cc1ccc(Nc2nccc(Oc3c(C)cc(-c4cn(CCc5cccs5)nn4)cc3C)n2)cc1,L100I,MT-4,IIIB,>5.53 µM

For reference, 5 entries again:

structure	changes	cell line	strain or isolate	value
C#Cc1ccc(Nc2nccc(Oc3c(C)cc(-c4cn(Cc5ccc(C(=O)OC)cc5)nn4)cc3C)n2)cc1	Y188L	MT-4	IIIB	≥9.09 µM
CCOC(=O)CNc1nc(Nc2ccc(OCC)cc2)nc(Oc2cc(=O)oc3ccccc23)n1		MT-4	IIIB	>62.13 µg/mL
CCc1c(Cc2ccccc2)n(COCCc2ccccc2)c(=O)[nH]c1=O	K103R/V179D/P225H	MT-4	EFVR	>43 µM
CSC(=Nc1ccc([N+](=O)[O-])cc1)Nn1c(C)nc2ccccc2c1=O		MT-4	IIIB	1.56 µg/mL
Cc1cc(C#N)cc(C)c1Oc1nc(Nc2ccc(C#N)cc2)ncc1SCC(=O)NCC1CCCO1	E138K	MT-4		0.0169 µM